# Test results as given in publication PMC10519361, “Shigella flexneri utilizes intestinal signals to control its virulence” (Gut Microbes, 2023).
# By UniProt entry, the sequences of proteins in these tests, tags left out.
# UniProt P0A2T1, whole entry: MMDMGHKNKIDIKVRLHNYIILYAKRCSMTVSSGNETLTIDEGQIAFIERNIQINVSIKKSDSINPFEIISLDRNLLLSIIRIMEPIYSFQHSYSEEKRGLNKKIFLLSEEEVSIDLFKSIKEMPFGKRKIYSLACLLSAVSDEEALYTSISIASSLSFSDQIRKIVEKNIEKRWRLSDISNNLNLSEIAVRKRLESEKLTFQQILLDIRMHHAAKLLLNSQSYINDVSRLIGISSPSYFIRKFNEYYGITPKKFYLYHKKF
# Biological target: VirF (Shigella flexneri) (UniProt P0A2T1)
# Experiment: EMSA
# Settings: 250 uM VirF, 100 nM DNA, no fatty acid; EMSA: 10 mM Tris pH 7.5, 1 mM EDTA, 100 mM KCl, 0.1 mM DTT, 5% glycerol, 0.01 mg/ml BSA; 15 min at 37 C; 6% polyacrylamide gel, 1X TAE; recombinant protein; label: none (SYBR green stain); probe letters rebuilt from the primers and the genome
sequence,measurement,value
AATTGATAAGCATTTTTTCATCTATGGAGCTCTCACATCAGAGCTCCACAAGAATATTATTCTTTTATCCAATAAAGATAAATTGCATCAATCCAGCTATTAAAATAGTAATTTTTAAGACTACCGTTGACTATCATCAACAGTTACATACAATCTTGCTCACACTGCATTTAACTTTTGTCAATATAAATCAATATGAATAAACAGGGTGTGAT (double strand) [virB promoter (PvirB)],binding result,binds

# The exact form of at least one protein or probe is not confirmed. At least one verdict was read from the data and is not stated in words by the source.
